Assays:
Plasmodium falciparum [1] = assay: Antiplasmodial activity against chloroquine-sensitive Plasmodium falciparum D10 assessed as inhibition of parasite LDH activity after 72 hrs by spectrophotometry
Plasmodium falciparum [2] = assay: Antiplasmodial activity against chloroquine-resistant Plasmodium falciparum W2 assessed as inhibition of parasite LDH activity after 72 hrs by spectrophotometry

Molecule NCCCO[N+](=O)[O-] has an IC50 (Plasmodium falciparum [1]) of over 5 µM and an IC50 (Plasmodium falciparum [2]) of over 5 µM.

From ChEMBL document CHEMBL1770125, “Amodiaquine analogues containing NO-donor substructures: synthesis and their preliminary evaluation as potential tools in the treatment of cerebral malaria” (Eur J Med Chem, 2011)
